# Laboratory results as given in PMC8637920, “Structure, Function and Regulation of a Second Pyruvate Kinase Isozyme in Pseudomonas aeruginosa” (Frontiers in Microbiology, 2021).
# Test system: C=C(OP(=O)(O)O)C(=O)O
# Assay: purified protein
# Conditions: PEP titration; no G6P
Substance,K0.5 [mM],kcat [s⁻¹],kcat/Km [M⁻¹ s⁻¹]
PykFPA (Pseudomonas aeruginosa PAO1; P455A),0.48 ± 0.02,250,522000
PykFPA (Pseudomonas aeruginosa PAO1; P455A/P459A),2.05 ± 0.53,147,72000
PykFPA (Pseudomonas aeruginosa PAO1; P459A),1.11 ± 0.05,127,114000
